Positions that govern dimerization of the HIV-1 5' RNA

RNA: 5' end of the HIV-1 NL4-3 genome, made in vitro. Positions 1-437 read:
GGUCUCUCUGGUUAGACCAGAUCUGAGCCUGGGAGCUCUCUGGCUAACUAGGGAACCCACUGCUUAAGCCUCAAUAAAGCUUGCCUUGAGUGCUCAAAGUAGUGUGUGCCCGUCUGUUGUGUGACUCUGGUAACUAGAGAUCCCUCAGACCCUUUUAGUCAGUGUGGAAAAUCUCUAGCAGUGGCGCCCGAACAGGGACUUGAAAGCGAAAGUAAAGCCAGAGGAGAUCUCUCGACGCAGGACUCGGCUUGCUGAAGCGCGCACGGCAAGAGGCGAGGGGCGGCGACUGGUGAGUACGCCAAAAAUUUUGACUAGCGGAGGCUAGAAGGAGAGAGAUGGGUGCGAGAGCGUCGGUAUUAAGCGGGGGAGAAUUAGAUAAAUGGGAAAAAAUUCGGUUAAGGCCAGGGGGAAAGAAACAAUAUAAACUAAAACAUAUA

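Mutant RNA libraries with 1G, 2G or 3G starts, with or without cap, were folded at 37 °C for 30 min. Monomer and dimer bands were cut from native gels after folding in high salt (300 mM KCl, 5 mM MgCl2) or low salt (40 mM KCl, 0.1 mM MgCl2). Mutation frequencies in the two bands give Kdimer.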

Values are log2 Kdimer, the median over the changes at each position: higher means that changes there hinder dimer formation, below 0 that they favour it. One numbering serves 1G, 2G and 3G. A position is written with its base.

- G279 -> 1G capped low-salt 0.04; 2G capped high-salt -0.10; 2G uncapped high-salt 0.10
- G280 -> 1G capped low-salt -0.43; 2G capped high-salt -0.22; 2G uncapped high-salt -0.33
- C281 -> 1G capped low-salt 0.40; 2G capped high-salt 0.44; 2G uncapped high-salt 0.57
- G282 -> 1G capped low-salt 0.85; 2G capped high-salt 0.28; 2G uncapped high-salt 0.79
- G283 (domain SL2) -> 1G capped low-salt -0.28; 2G capped high-salt -0.08; 2G uncapped high-salt 0.03
- C284 (domain SL2) -> 1G capped low-salt 0.58; 2G capped high-salt 0.27; 2G uncapped high-salt 0.46
- G285 (domain SL2) -> 1G capped low-salt 1.30; 2G capped high-salt 1.15; 2G uncapped high-salt 1.31
- A286 (domain SL2) -> 1G capped low-salt -0.02; 2G capped high-salt 0.47; 2G uncapped high-salt 0.31
- C287 (domain SL2) -> 1G capped low-salt -0.55; 2G capped high-salt -0.27; 2G uncapped high-salt -0.16
- U288 (domain SL2) -> 1G capped low-salt -0.05; 2G capped high-salt -0.28; 2G uncapped high-salt -0.15
- G289 (domain SL2) -> 1G capped low-salt 0.16; 2G capped high-salt 0.44; 2G uncapped high-salt 0.33
- G290 (domain SL2) -> 1G capped low-salt 0.03; 2G capped high-salt 0.00; 2G uncapped high-salt 0.24
- U291 (domain SL2) -> 1G capped low-salt -0.29; 2G capped high-salt 0.04; 2G uncapped high-salt 0.02
- G292 (domain SL2) -> 1G capped low-salt -0.31; 2G capped high-salt -0.26; 2G uncapped high-salt -0.17
- A293 (domain SL2) -> 1G capped low-salt -0.21; 2G capped high-salt -0.13; 2G uncapped high-salt 0.00
- G294 (domain SL2) -> 1G capped low-salt -0.64; 2G capped high-salt -0.31; 2G uncapped high-salt -0.11
- U295 (domain SL2) -> 1G capped low-salt -0.66; 2G capped high-salt -0.31; 2G uncapped high-salt -0.05
- A296 (domain SL2) -> 1G capped low-salt 0.21; 2G capped high-salt 0.62; 2G uncapped high-salt 0.69
- C297 (domain SL2) -> 1G capped low-salt -0.12; 2G capped high-salt 0.01; 2G uncapped high-salt 0.37
- G298 (domain SL2) -> 1G capped low-salt -0.49; 2G capped high-salt -0.40; 2G uncapped high-salt -0.42
- C299 (domain SL2) -> 1G capped low-salt -0.62; 2G capped high-salt -0.06; 2G uncapped high-salt 0.24
- C300 -> 1G capped low-salt -0.63; 2G capped high-salt -0.09; 2G uncapped high-salt 0.06
- A301 -> 1G capped low-salt 0.46; 2G capped high-salt 0.39; 2G uncapped high-salt 0.46
- A302 -> 1G capped low-salt -0.24; 2G capped high-salt 0.09; 2G uncapped high-salt 0.15
- A303 -> 1G capped low-salt 0.02; 2G capped high-salt 0.08; 2G uncapped high-salt 0.11
- A304 -> 1G capped low-salt 0.04; 2G capped high-salt -0.03; 2G uncapped high-salt 0.03
- A305 -> 1G capped low-salt -0.06; 2G capped high-salt -0.25; 2G uncapped high-salt -0.18
- U306 -> 1G capped low-salt -0.05; 2G capped high-salt 0.19; 2G uncapped high-salt 0.13
- U307 -> 1G capped low-salt -0.13; 2G capped high-salt 0.15; 2G uncapped high-salt 0.21
- U308 -> 1G capped low-salt -0.11; 2G capped high-salt 0.15; 2G uncapped high-salt 0.23
- U309 -> 1G capped low-salt 0.05; 2G capped high-salt 0.29; 2G uncapped high-salt 0.20
- G310 -> 1G capped low-salt -0.05; 2G capped high-salt -0.21; 2G uncapped high-salt 0.00

A selection of 4 entries from above:

| position | domain | 1G capped low-salt | 2G capped high-salt | 2G uncapped high-salt |
|---|---|---|---|---|
| A286 | SL2 | -0.02 | 0.47 | 0.31 |
| G294 | SL2 | -0.64 | -0.31 | -0.11 |
| A304 | none | 0.04 | -0.03 | 0.03 |
| A303 | none | 0.02 | 0.08 | 0.11 |

Data from the supplement of Ye et al. 2022, doi:10.1038/s41594-022-00746-2.